Results reported in patent EP0852148B1, “Products having anti-microbial activity” (SION MICROTEC LTD., priority 1997, dated 1998).
Where a name gives a salt, the structure may show the parent alone.

Experiment: Release of radioactive CHXH from cotton gauze into L.B. medium
Details: 5 ml L.B. medium renewed every 24 hours

In the case of N=C(NCCCCCCNC(=N)NC(=N)Nc1ccc(Cl)cc1)NC(=N)Nc1ccc(Cl)cc1 [CHXH, chlorohexidine hydrochloride], the sustained-release profile (20 days) is reported as “almost linear” and the “amount of CHXH released, of the amount contained in the gauze after washing 3 times” value (during the 20 days) is reported as “about 4%”.
